Experimental data as given in patent US20040248081, “LANA viral protein binding sites” (THE REGENTS OF THE UNIVERSITY OF MICHIGAN, published 2004).
Results from cells or extracts need not show a direct contact. Where a protein sequence is shown, tags need not be part of it.

Molecular target: T1, endogenous LANA from BC-3 cells (Kaposi's sarcoma-associated herpesvirus) (UniProt Q9QR71)
T1 sequence (looked up, limits assumed): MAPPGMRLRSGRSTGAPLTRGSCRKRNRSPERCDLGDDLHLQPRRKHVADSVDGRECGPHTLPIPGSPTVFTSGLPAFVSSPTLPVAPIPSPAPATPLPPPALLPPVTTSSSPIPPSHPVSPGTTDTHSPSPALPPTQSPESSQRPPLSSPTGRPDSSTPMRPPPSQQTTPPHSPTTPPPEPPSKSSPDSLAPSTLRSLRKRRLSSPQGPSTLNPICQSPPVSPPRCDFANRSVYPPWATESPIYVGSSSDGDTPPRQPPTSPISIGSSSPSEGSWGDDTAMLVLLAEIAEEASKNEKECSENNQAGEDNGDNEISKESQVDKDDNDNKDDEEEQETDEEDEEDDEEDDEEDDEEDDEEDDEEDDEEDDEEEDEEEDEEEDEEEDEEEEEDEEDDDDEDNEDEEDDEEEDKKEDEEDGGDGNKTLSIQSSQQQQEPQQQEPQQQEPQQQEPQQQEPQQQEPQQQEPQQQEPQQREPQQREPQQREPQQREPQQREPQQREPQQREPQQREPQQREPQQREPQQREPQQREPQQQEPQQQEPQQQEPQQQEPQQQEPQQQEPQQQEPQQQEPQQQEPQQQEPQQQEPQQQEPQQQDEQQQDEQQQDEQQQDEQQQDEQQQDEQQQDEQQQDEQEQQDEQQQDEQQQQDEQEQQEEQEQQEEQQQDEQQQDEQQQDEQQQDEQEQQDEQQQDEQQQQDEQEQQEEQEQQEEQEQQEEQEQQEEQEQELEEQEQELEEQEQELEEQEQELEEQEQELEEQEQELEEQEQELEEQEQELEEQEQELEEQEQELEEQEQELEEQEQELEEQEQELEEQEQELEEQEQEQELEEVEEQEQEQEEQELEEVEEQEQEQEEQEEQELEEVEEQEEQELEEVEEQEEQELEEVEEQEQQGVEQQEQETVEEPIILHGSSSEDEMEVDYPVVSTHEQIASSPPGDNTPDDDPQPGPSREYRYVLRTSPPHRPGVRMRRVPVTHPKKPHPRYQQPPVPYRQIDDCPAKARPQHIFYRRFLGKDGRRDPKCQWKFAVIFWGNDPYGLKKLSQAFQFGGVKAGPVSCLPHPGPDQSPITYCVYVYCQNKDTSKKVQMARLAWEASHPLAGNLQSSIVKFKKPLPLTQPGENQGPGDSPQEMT
Test: EMSA
Details: at least six complexes; anti-LANA supershift; protein in an extract; label: radiolabel

TCCCGCCCGGGCATGGG (double strand) [TLBR4]
binding result: binds
